Assay results reported in the NIST ThermoML archive (doi:10.1021/je8003707).
± gives the expanded uncertainty stated by the source.

Conditions: 101 kPa, Liquid; for viscosity: Capillary tube (Ostwald / Ubbelohde) method; for mass density: Pycnometric method

CCCCOP(=O)(OCCCC)OCCCC [tributyl phosphate]
Conditions	mass density [kg/m3]	viscosity [mPa·s]
288.15 K	981 ± 0.3	4.304 ± 0.032
293.15 K	976.8 ± 0.3	3.77 ± 0.028
298.15 K	972.5 ± 0.3	3.341 ± 0.025
303.15 K	968.2 ± 0.3	2.969 ± 0.022
308.15 K	963.9 ± 0.3	2.651 ± 0.02
